The target of this series is recombinant protein of two full size thioredoxine domains with modified protease recognition site between them [thioredoxin: P0AA25].

B1: Pro39 (C-terminal cysteine protease domain of Semliki Forest virus non-structural protein nsP2) (protein)
chain: KVIEGPAAPVDAFQNKANVCWAKSLVPVLDTAGIRLTAEEWSTIITAFKEDRAYSPVVALNEICTKYYGVDLDSGLFSAPKVSLYYENNHWDNRPGGRMYGFNAATAARLEARHTFLKGQWHTGKQAVIAERKIQPLSVLDNVIPINRRLPHALVAEYKTVKGSRVEWLVNKVRGYHVLLVSEYNLALPRRRVTWLSPLNVTGADRCYDLSLGLPADAGRFDLVFVNIHTEFRIHHYQQCVDHAMKLQMLGGDALRLLKPGGSLLMRAYGYADKISEAVVSSLSRKFSSARVLRPDCVTSNTEVFLLFSNFDNGKRPSTLHQMNTKLSAVYAGEAMHTAGC
Consider B1, for which the “cleavage efficiency, Pro39, SDS-PAGE” value was “the cleavage efficiency was significantly enhanced as compared to cleavage of recognition sites placed between structured and non-structured protein sequences”.

(Values after patent publication US20050282254.)
